Measured values from several laboratories, pooled; numbers as filed in NIAID ChemDB.

Common to all: growth or infection tests; agent: Mycobacterium tuberculosis

Rows are shuffled and stem from different studies. Blank or dashed fields: not listed here. Percent inhibition refers to the dose given; in toxicity tests it is the harm to the cells. ECn is the concentration giving n% inhibition of infection, replication or growth. MIC bound comes from a single tested concentration.

smiles | strain or isolate | method | read-out | dose | result
CC1C(=O)N(c2ccccc2)C1c1ccccc1 | H37Rv | - | MIC | - | >100 µg/mL
COc1cc2oc3cc(=O)cc4oc(-c5ccccc5)cc(c2c2c1CCC(c1ccccc1)O2)c43 | H37Rv | BACTEC | MIC bound | - | >12.5 µg/mL
CCCCCC(C)NCCNC1(C)CN(CC(CC)CCCC)CN(CC(CC)CCCC)C1 | - | - | MIC | - | 25 µM
COc1ccc2c(=O)n(-c3cccc(F)c3)c(=O)oc2c1 | CNCTC MY331/88 | - | MIC | - | 8 µM
O=C(c1cc(Br)ccc1O)c1cc(Br)ccc1O | H37Rv | - | MIC | - | 25 µg/mL
CN(C)NC1=NS(=O)(=O)c2cc3c(=O)n(C)[nH]c3cc2S1 | H37Rv | resazurin | inhibition | 6.25 µg/mL | 9%
COc1ccccc1CCNCCN(Cc1ccccc1)Cc1ccccc1 | - | - | MIC | - | 50 µM
CC(=O)Nc1ccc(S(=O)(=O)N/N=C\c2ccccc2)cc1 | - | - | MIC | - | >200 µg/mL
COC1C(O)=C2C(=O)OC(C)(O)/C=C/C=C/C=C/C=C\C(c3ccccc3)NC(=O)/C=C/C=C/C=C/C=C/C2(C)C1O | INH-r | - | MIC | - | >12.5 µg/mL
CO[C@H]1/C=C/O[C@@]2(C)Oc3c(C)c(O)c4c(O)c(c(/C=N/N5CCN(C6CCCC6)CC5)c(O)c4c3C2=O)NC(=O)/C(C)=C\C=C\[C@H](C)[C@H](O)[C@@H](C)[C@@H](O)[C@@H](C)[C@H](OC(C)=O)[C@@H]1C | Isolate 880902 rifampicin-resistant | - | MIC | - | >32 µg/mL
O=C1c2ccccc2-c2nc3ccccc3nc21 | H37Rv | resazurin | inhibition | 6.25 µg/mL | 96%
CC(=O)Oc1cc(Nc2ccccc2)nn1C(C)=O | H37Rv | - | MIC | - | 100 µg/mL
CC(C)c1ccc2c(c1)CC[C@H]1[C@](C)(CNCCNCC(c3ccccc3)c3ccccc3)CCC[C@]21C | - | - | MIC | - | 12.5 µM
COc1ccccc1NC(=O)/C(C=NC(=S)c1ccncc1)=C(\C)O | H37Rv | resazurin | inhibition | 6.25 µg/mL | -110%
Cc1ccc(S(=O)(=O)NNc2ccccc2)cc1 | - | - | MIC | - | >200 µg/mL
COc1ccc2oc(=O)n(-c3ccc(C)cc3)c(=O)c2c1 | CNCTC MY331/88 | - | MIC | - | 125 µM
COC(=O)C1=NC(=N)N=C(C(=O)OC)C12C(=O)Cc1ccccc12 | H37Rv | BACTEC | inhibition | 12.5 µg/mL | 0%
CC(=O)NNS(=O)(=O)c1ccc([N+](=O)[O-])cc1 | - | - | MIC | - | 100 µg/mL
COc1ccc(CCNCCNC(C)c2cccc3ccccc23)cc1 | - | - | MIC | - | 50 µM
COc1ccc(Cl)c(S(N)(=O)=O)c1 | H37Rv | - | MIC | - | >100 µg/mL
C[C@H]1COc2c(N3CCN(C)CC3)c(F)cc3c(=O)c(C(=O)O)cn1c23 | 1R | - | MIC | - | 0.5 µg/mL
OC(CNCc1ccccc1)c1ccccc1 | H37Rv | - | MIC | - | >100 µg/mL
O=c1cc(-c2ccc(O)cc2-c2c(O)cc3oc(-c4ccc(O)cc4)cc(=O)c3c2O)oc2cc(O)cc(O)c12 | H37Rv | - | EC50 | - | >12.5 µg/mL
CCOC(=O)Nc1cc(N)c2nnsc2n1 | H37Rv | - | EC50 | - | >12.5 µg/mL
CC(CNCC12CC3CC(CC(C3)C1)C2)NC[C@@H]1CC[C@H]2C[C@@H]1C2(C)C | - | - | MIC | - | 50 µM
CC(=O)c1c(O)c(C)c(O)c2c1OC1=CC(=O)C(C(C)=O)C(=O)C12C | H37Rv | BACTEC | MIC bound | - | ≤12.5 µg/mL
COc1ccc(C(=O)SSC(=O)c2ccc(OC)cc2)cc1 | H37Rv | - | MIC | - | >100 µg/mL
CCCCCNCCNCCC1=CCCCC1 | - | - | MIC | - | 25 µM
Cc1nc(-c2nc(C(=O)NCCC[S+](C)C)cs2)cs1.[Cl-] | H37Rv | BACTEC | MIC | - | ≥12.8 µg/mL
CCOC(=O)Nc1cc(NCC(=O)CN(C)c2ccccc2)c([N+](=O)[O-])c(NC(=O)OCC)n1 | H37Rv | - | inhibition | 12.5 µg/mL | 0%
COc1ccc(CNCCNCCc2ccc(F)cc2)cc1OC | - | - | MIC | - | 50 µM
Oc1ccc(C=Nc2ccc(N=Nc3ccccc3)cc2)c(O)c1 | H37Rv | - | MIC | - | 25 µg/mL
CO[C@H]1/C=C/O[C@@]2(C)Oc3c(C)c(O)c4c(=O)c(c5oc6cc(N7CCN(C(C)C)CC7)cc(=O)c6nc5c4c3=C2O)NC(=O)/C(C)=C\C=C\[C@H](C)[C@H](O)[C@@H](C)[C@@H](O)[C@@H](C)[C@H](OC(C)=O)[C@@H]1C | 3113 (rifampin-sensitive) | - | MIC | - | 0.05 µg/mL
NCC[C@H](O)C(=O)N[C@@H]1C[C@H](N)[C@@H](O[C@H]2O[C@H](CN)[C@@H](O)[C@H](O)[C@H]2O)[C@H](O)[C@H]1O[C@H]1O[C@H](CO)[C@@H](O)[C@H](N)[C@H]1O | TN933 (CB) | - | MIC | - | 8 µg/mL
CN=c1sc2c(n1C)C(=O)c1ccccc1C2=O | H37Rv | BACTEC | MIC | - | 1.6 µg/mL
CC(=O)N(C)c1c(Br)cc(Br)c2c1C(=O)c1ccccc1C2=O | H37Rv | - | MIC | - | 50 µg/mL
CCOC(=O)Nc1cc2[nH]c(-c3ccc([N+](=O)[O-])cc3)nc2c(N(CCc2ccccc2)Cc2ccccc2)n1 | H37Rv | - | EC50 | - | <12.5 µg/mL
CC(=O)Nc1ccccc1C(=O)C(=O)Nc1ccccc1C(=O)NN | H37Rv | BACTEC | MIC bound | - | >12.5 µg/mL
CNCC(=O)c1ccc(O)c(O)c1.Cl | H37Rv | - | MIC | - | >100 µg/mL
NC(CSSCC(N)C(=O)O)C(=O)O | H37Rv | BACTEC | MIC | - | ≥128 µg/mL
CN(C)C1CCCC(OC(=O)c2ccc(N)cc2)C1.Cl | H37Rv | - | MIC | - | >100 µg/mL
CCOC(=O)Nc1cc(NC(C)C(O)c2ccc(O)cc2)c([N+](=O)[O-])c(N)n1 | H37Rv | - | EC50 | - | >12.5 µg/mL
CCOc1cc(O)c(C(=O)/C=C/c2ccccc2)c(OCC)c1 | - | - | EC50 | - | >12.5 µg/mL
O=C1C=C(Nc2cccc(Cl)c2)c2ccccc2C1=O | H37Rv | resazurin | MIC | - | 3.13 µg/mL
COc1ccc(OC)c(CCNCCN[C@H]2C[C@H]3CC[C@]2(C)C3(C)C)c1 | - | - | MIC | - | 25 µM
COc1ccc(/C=C/C(=O)c2cc(Cl)ccc2O)cc1 | - | - | EC50 | - | >12.5 µg/mL
CC(C)c1ccc2c(c1)CC[C@H]1[C@](C)(CNCCNCC3CCCO3)CCC[C@]21C | - | - | MIC | - | 25 µM
Nc1ccc2nnnn2n1 | H37Rv | BACTEC | MIC bound | - | >12.5 µg/mL
Nc1ncccc1C(=O)O | H37Rv | - | MIC | - | >100 µg/mL
CO[C@H]1/C=C/O[C@@]2(C)Oc3c(C)c(O)c4c(=O)c(c5oc6cc(N7CCN(CC(C)C)CC7)cc(=O)c6nc5c4c3=C2O)NC(=O)/C(C)=C\C=C\[C@H](C)[C@H](O)[C@@H](C)[C@@H](O)[C@@H](C)[C@H](OC(C)=O)[C@@H]1C | 3064 (rifampin-sensitive) | - | MBC | - | 0.012 µg/mL
CCOC(=O)Nc1cc(Cl)c2nc(-c3cc(OC)c(OC)c(OC)c3)c(-c3cc(OC)c(OC)c(OC)c3)nc2n1 | H37Rv | - | EC50 | - | >12.5 µg/mL
CCOC(=O)C(Br)C(Br)C(=O)OCC | H37Rv | - | MIC | - | >100 µg/mL
CCC1OC(=O)CC(O)C(C)C(OC2OC(C)C(O)C(N(C)C)C2O)C(CC=O)CC(C)C(=O)/C=C\C2(C)OC2C1C | H37Rv | BACTEC | inhibition | 12.5 µg/mL | 13%
O=C1c2cccc([N+](=O)[O-])c2C(=O)c2c1cccc2[N+](=O)[O-] | H37Rv | - | MIC | - | >100 µg/mL
NC(=O)c1cnccn1 | Isolate 11552 INH-resistant | - | MIC | - | >300 µg/mL
CO[C@H]1/C=C/O[C@@]2(C)Oc3c(C)c(O)c4c(O)c(c5c(c4c3C2=O)NC2(CCN(CC(C)C)CC2)N=5)=NC(=O)/C(C)=C\C=C\[C@H](C)[C@H](O)[C@@H](C)[C@@H](O)[C@@H](C)[C@H](OC(C)=O)[C@@H]1C | Strain 71 | - | MIC | - | 0.5 µg/mL
ON=C(c1ccc(Cl)cc1)c1ccc(Cl)cc1 | H37Rv | - | MIC | - | >100 µg/mL
CC1CCC(NCCNCCNc2ccccc2)CC1 | - | - | MIC | - | 50 µM
CC(NCCNCCC(c1ccccc1)c1ccccc1)C12CC3CC(CC(C3)C1)C2 | - | - | MIC | - | 6.25 µM
CCOC(=O)c1ccc(-n2c(=O)oc3cc(C)ccc3c2=O)cc1 | CNCTC MY331/88 | - | MIC | - | 8 µM
NCC[C@H](O)C(=O)N[C@@H]1C[C@H](N)[C@@H](O[C@H]2O[C@H](CN)[C@@H](O)[C@H](O)[C@H]2O)[C@H](O)[C@H]1O[C@H]1O[C@H](CO)[C@@H](O)[C@H](N)[C@H]1O | MDR7 | broth dilution / resazurin | MIC | - | 128 µg/mL
C[C@@H](NCCNC1CCCCCCC1)C1CCCCC1 | - | - | MIC | - | 50 µM
N=c1ncn(C2CCOC2=O)c2nc[nH]c12 | H37Rv | BACTEC | inhibition | 12.5 µg/mL | 26%
N#Cc1ccc(-n2c(=O)oc3ccc(Br)cc3c2=O)cc1 | CNCTC MY331/88 | - | MIC | - | 2 µM
CCOC(=O)Nc1cc(N[C@@H](C)[C@H](C)c2ccccc2)c([N+](=O)[O-])c(N)n1 | H37Rv | - | EC50 | - | >12.5 µg/mL
Fc1ccc(CNCCN(CCc2ccccc2)Cc2ccccc2)cc1 | - | - | MIC | - | 50 µM
CC(NCCNCc1ccccc1Sc1ccccc1CO)C12CC3CC(CC(C3)C1)C2 | - | - | MIC | - | 50 µM
O=c1[nH]ncc(Cl)c1Cl | - | resazurin | inhibition | 6.25 µg/mL | 37%
COc1ccc(C2CC(=O)c3ccc(F)cc3O2)cc1 | - | - | EC50 | - | >12.5 µg/mL
Cc1cc(C)c(C(C)C(N)=O)c(C)c1 | H37Rv | - | MIC | - | >100 µg/mL
CC(C)c1ccc2c(c1)CC[C@H]1[C@](C)(CNCCNCCCCO)CCC[C@]21C | - | - | MIC | - | 50 µM
CO[C@H]1/C=C/O[C@@]2(C)Oc3c(C)c(O)c4c(=O)c(c5oc6cc(N7CCN(CC(C)C)CC7)cc(=O)c6nc5c4c3=C2O)NC(=O)/C(C)=C\C=C\[C@H](C)[C@H](O)[C@@H](C)[C@@H](O)[C@@H](C)[C@H](OC(C)=O)[C@@H]1C | TN794 | - | MIC | - | <1 µg/mL
O=C1CC(c2cccc(Cl)c2)Oc2ccccc21 | H37Rv | - | EC50 | - | >12.5 µg/mL
CC(C)=CC[C@H](O)C1=CC(=O)c2c(O)ccc(O)c2C1=O | TAC-R | - | MIC | - | 3.2 µg/mL
NCC[C@H](O)C(=O)N[C@@H]1C[C@H](N)[C@@H](O[C@H]2O[C@H](CN)[C@@H](O)[C@H](O)[C@H]2O)[C@H](O)[C@H]1O[C@H]1O[C@H](CO)[C@@H](O)[C@H](N)[C@H]1O | 8S | - | MIC | - | 2.5 µg/mL
O/N=C/CCOc1ccccc1 | H37Rv | - | MIC | - | >100 µg/mL
Cc1cc(Br)cc(C)c1NC(=O)C(=O)Nn1c(=S)[nH]c2ccccc2c1=O | H37Rv | BACTEC | inhibition | 12.5 µg/mL | -3%
Cc1ccc(Nc2cc(Oc3ccc(C)cc3)c3c4c(cc(=O)n3C)-c3ccccc3C(=O)c24)cc1 | H37Rv | - | MIC | - | >100 µg/mL
O=C(NN=C1CCCC1)c1ccccc1 | - | - | MIC | - | 1 µg/mL
Brc1cc[c]([Pb]([c]2ccccc2)([c]2ccccc2)[c]2ccc(Br)cc2)cc1 | H37Rv | - | MIC | - | 50 µg/mL
Cc1nnc2nc(N)[nH]n2c1=O | H37Rv | resazurin | MIC bound | - | >6.25 µg/mL
NC(=S)Nc1ccccc1Cl | H37Rv | - | MIC | - | 100 µg/mL
COc1ccc(C2Oc3cc(F)ccc3C(=O)C2O)cc1 | - | - | EC50 | - | 12.5 µg/mL
COc1cc2oc3c(c(=O)c2c(O)c1/C=C/C(C)C)C(C=C(C)C)Oc1cc(O)ccc1-3 | EMB-R | - | MIC | - | >12.5 µg/mL
O=C1Nc2ccccc2C1=O | H37Rv | - | MIC | - | >100 µg/mL

Repeating the first 12 entries:

smiles	strain or isolate	method	read-out	dose	result
CC1C(=O)N(c2ccccc2)C1c1ccccc1	H37Rv	-	MIC	-	>100 µg/mL
COc1cc2oc3cc(=O)cc4oc(-c5ccccc5)cc(c2c2c1CCC(c1ccccc1)O2)c43	H37Rv	BACTEC	MIC bound	-	>12.5 µg/mL
CCCCCC(C)NCCNC1(C)CN(CC(CC)CCCC)CN(CC(CC)CCCC)C1	-	-	MIC	-	25 µM
COc1ccc2c(=O)n(-c3cccc(F)c3)c(=O)oc2c1	CNCTC MY331/88	-	MIC	-	8 µM
O=C(c1cc(Br)ccc1O)c1cc(Br)ccc1O	H37Rv	-	MIC	-	25 µg/mL
CN(C)NC1=NS(=O)(=O)c2cc3c(=O)n(C)[nH]c3cc2S1	H37Rv	resazurin	inhibition	6.25 µg/mL	9%
COc1ccccc1CCNCCN(Cc1ccccc1)Cc1ccccc1	-	-	MIC	-	50 µM
CC(=O)Nc1ccc(S(=O)(=O)N/N=C\c2ccccc2)cc1	-	-	MIC	-	>200 µg/mL
COC1C(O)=C2C(=O)OC(C)(O)/C=C/C=C/C=C/C=C\C(c3ccccc3)NC(=O)/C=C/C=C/C=C/C=C/C2(C)C1O	INH-r	-	MIC	-	>12.5 µg/mL
CO[C@H]1/C=C/O[C@@]2(C)Oc3c(C)c(O)c4c(O)c(c(/C=N/N5CCN(C6CCCC6)CC5)c(O)c4c3C2=O)NC(=O)/C(C)=C\C=C\[C@H](C)[C@H](O)[C@@H](C)[C@@H](O)[C@@H](C)[C@H](OC(C)=O)[C@@H]1C	Isolate 880902 rifampicin-resistant	-	MIC	-	>32 µg/mL
O=C1c2ccccc2-c2nc3ccccc3nc21	H37Rv	resazurin	inhibition	6.25 µg/mL	96%
CC(=O)Oc1cc(Nc2ccccc2)nn1C(C)=O	H37Rv	-	MIC	-	100 µg/mL